Measurements reported in PubChem BioAssay AID624099 (ICCB-Longwood, 2012).
Shown is an unselected part of about 21,000 reagents. Over the whole deposit, 497 (2.4%) were called active. 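Higher z means weaker E2 silencing; only reporter increases were scored, and knock-downs that hurt cell survival may mask genuine repressor factors.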 Unmarked entries are inactive. Reagent sequences are not shown.

Screen: 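Host factors E2 relies on to silence an HPV18 LCR reporter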 (primary screen)
System: human C33A cervical carcinoma cells (HPV-negative) stably expressing BPV1 E2 and an HPV18 LCR luciferase reporter
Reagents: siRNA pool against human genes, 40 nM
Time to read-out: 72 h
Read-out: 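Per-well luciferase luminescence, z-scored on each plate against the plate mean and SD with control wells left out, then averaged across three replicate plates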
Scale: mean z-score and z-score: higher = stronger reporter signal, weaker E2 silencing
Rule for the call: 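Mean z ≥ 2 together with z ≥ 2 in two or more of the three replicates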

What is on record for TTPAL (alpha tocopherol transfer protein like) [SID134318501]?
mean z-score: 3.02 (active); z-score, replicate A: 2.94; z-score, replicate B: 2.97; z-score, replicate C: 3.14

How did the screen score STGC3 (retired record) [SID134329965]?
mean z-score: -1.74; z-score, replicate A: -1.8; z-score, replicate B: -1.76; z-score, replicate C: -1.66

With C9orf153 (chromosome 9 open reading frame 153) [SID134328038], how do the results read?
mean z-score: -0.04; z-score, replicate A: 0; z-score, replicate B: -0.05; z-score, replicate C: -0.07

What is on record for POU3F3 (POU class 3 homeobox 3) [SID134323872]?
mean z-score: -0.38; z-score, replicate A: -0.64; z-score, replicate B: -0.31; z-score, replicate C: -0.18

With MRPS11 (mitochondrial ribosomal protein S11) [SID134317841], what does the deposit list?
mean z-score: 0.47; z-score, replicate A: 0.57; z-score, replicate B: 0.29; z-score, replicate C: 0.54

For PIWIL4 (piwi like RNA-mediated gene silencing 4) [SID134310563], what was measured?
mean z-score: -0.19; z-score, replicate A: -0.01; z-score, replicate B: -0.37; z-score, replicate C: -0.18

For GPAM (glycerol-3-phosphate acyltransferase, mitochondrial) [SID134314637], what does the deposit list?
mean z-score: 0.19; z-score, replicate A: 0.6; z-score, replicate B: 0.34; z-score, replicate C: -0.38

What did the screen give for PGA5 (pepsinogen A5) [SID134311416]?
mean z-score: 0.11; z-score, replicate A: 0.24; z-score, replicate B: 0.02; z-score, replicate C: 0.06

What did the screen give for ETV6 (ETS variant transcription factor 6) [SID134315010]?
mean z-score: 4.61 (active); z-score, replicate A: 4.75; z-score, replicate B: 4.57; z-score, replicate C: 4.52

What is on record for LOC391844 (retired record) [SID134327519]?
mean z-score: -0.53; z-score, replicate A: -0.72; z-score, replicate B: -0.48; z-score, replicate C: -0.41

For GATAD1 (GATA zinc finger domain containing 1) [SID134320588], how do the results read?
mean z-score: -0.44; z-score, replicate A: -0.4; z-score, replicate B: -0.89; z-score, replicate C: -0.04

Not a retest: 3 of the entries above.
PIWIL4 (piwi like RNA-mediated gene silencing 4) [SID134310563] — mean z-score: -0.19; z-score, replicate A: -0.01; z-score, replicate B: -0.37; z-score, replicate C: -0.18
GPAM (glycerol-3-phosphate acyltransferase, mitochondrial) [SID134314637] — mean z-score: 0.19; z-score, replicate A: 0.6; z-score, replicate B: 0.34; z-score, replicate C: -0.38
PGA5 (pepsinogen A5) [SID134311416] — mean z-score: 0.11; z-score, replicate A: 0.24; z-score, replicate B: 0.02; z-score, replicate C: 0.06

Continued:
With TMEM260 (transmembrane protein 260) [SID134324436], what was measured?
mean z-score: 0.18; z-score, replicate A: -0.1; z-score, replicate B: -0.07; z-score, replicate C: 0.72

For CCDC136 (coiled-coil domain containing 136) [SID134322427], what was measured?
mean z-score: 0.41; z-score, replicate A: 0.44; z-score, replicate B: 0.47; z-score, replicate C: 0.31

With LOC154449 [SID134326209], what was measured?
mean z-score: 0.43; z-score, replicate A: 0.23; z-score, replicate B: 0.61; z-score, replicate C: 0.46

With CNRIP1 (cannabinoid receptor interacting protein 1) [SID134318152], what was measured?
mean z-score: 0.71; z-score, replicate A: 0.78; z-score, replicate B: 0.79; z-score, replicate C: 0.55

For GCC1 (GRIP and coiled-coil domain containing 1) [SID134321413], what does the deposit list?
mean z-score: -1.28; z-score, replicate A: -1.59; z-score, replicate B: -1.39; z-score, replicate C: -0.86

Which result is listed for ISLR2-AS1 (ISLR2 antisense RNA 1) [SID134328557]?
mean z-score: 2.34 (active); z-score, replicate A: 1.51; z-score, replicate B: 2.74; z-score, replicate C: 2.76

What did the screen give for VTN (vitronectin) [SID134317634]?
mean z-score: -0.33; z-score, replicate A: -0.4; z-score, replicate B: -0.05; z-score, replicate C: -0.55

With PHC3 (polyhomeotic homolog 3) [SID134319826], what was measured?
mean z-score: 0.01; z-score, replicate A: 0.18; z-score, replicate B: -0.14; z-score, replicate C: -0.01

For UBE2L6 (ubiquitin conjugating enzyme E2 L6) [SID134313436], how do the results read?
mean z-score: -0.36; z-score, replicate A: -0.08; z-score, replicate B: -0.3; z-score, replicate C: -0.7

For OR4F5 (olfactory receptor family 4 subfamily F member 5) [SID134329927], what was measured?
mean z-score: 0.87; z-score, replicate A: 0.36; z-score, replicate B: 0.73; z-score, replicate C: 1.52
